Compound potency records, mixed from different reports. Data source: NIAID ChemDB in PubChem.

All rows: tests in culture; agent: Mycobacterium avium; endpoint: MIC

An empty or dashed field is not shown.

O=C(NCc1ccccc1)c1ncccc1O ; strain: CNCTC MY330/88 ; value: 500 µM
CCOC1Oc2ccc(Cl)cc2C(=O)/C1=C/Nc1nc2ccccc2s1 ; strain: MY 80/72 ; value: >100 µg/mL
CCCCCCCCOc1cccc(NC(=O)OCC[NH+]2CCCC2)c1 ; strain: MY330/88 ; value: 16 µM
Cc1ccc2occ(/C=N/NC(=O)c3ccncc3)c(=O)c2c1 ; strain: MY 80/72 ; value: >100 µg/mL
CCCCOc1ccc(NC(=S)Nc2ccc(OCCCC)cc2)cc1 ; strain: 724 ; value: >20 µg/mL
CCCCCCOc1ccccc1NC(=O)OCC[N+]1(CCCC)CCCCC1 ; strain: MY330/88 ; value: 62.5 µM
CCCCc1ccc(NC(=S)c2cc(Cl)ccc2O)cc1 ; strain: MY330/88 ; value: 16 µM
CCOc1ccc(NC(=O)OCC[NH+]2CCCC2)cc1 ; strain: MY330/88 ; value: 1000 µM
C[C@H](NC(=O)OCc1ccccc1)c1cnc(-c2ccc([N+](=O)[O-])cc2)[nH]1 ; setting: 14 d ; strain: MY330/88 ; value: >125 µM
Fc1ccc(/C(Cn2ccnc2)=N/OCc2cccc3ccccc23)cc1 ; strain: 103317 ; value: 22.2 µM
CCCCCCc1ccc(NC(=O)c2cc(Br)ccc2O)cc1 ; strain: MY330/88 ; value: 16 µM
CCCCCOc1ccccc1NC(=O)OCC[N+]1(CCCC)CCCCC1 ; strain: MY330/88 ; value: 250 µM
CCC(C)c1ccc(NC(=S)c2cc(Cl)ccc2O)cc1 ; strain: MY330/88 ; value: 31 µM
O=C(N[C@@H](Cc1ccccc1)c1cnc(-c2ccccc2)[nH]1)OCc1ccccc1 ; setting: 21 d ; strain: MY330/88 ; value: >500 µM
Clc1ccc(/C(Cn2ccnc2)=N/OC/C=C/c2ccccc2)c(Cl)c1 ; strain: 103317 ; value: 20.7 µM
CCCCc1ccc(NC(=S)Nc2ccc(OCCC(C)C)cc2)cc1 ; strain: 724 ; value: 5 µg/mL
NC(=S)c1cccc(CSc2ncn[nH]2)c1 ; strain: MY330/88 ; value: 500 µM
O=C(Nc1ccc(Cl)cc1Cl)c1cc(Br)ccc1O ; strain: CNCTC MY330/88 ; value: 8 µM
O=C(NCc1cccc(Cl)c1)c1ncccc1S ; strain: CNCTC MY330/88 ; value: 8 µM
CCCCCCCCCOc1ccc(NC(=O)OCC[NH+]2CCCC2)cc1 ; strain: MY330/88 ; value: 16 µM
CC(C)(C)c1cc(C(C)(C)C)c2nc(C(=O)NC(Cc3ccc(O)cc3)C(=O)O)oc2c1 ; strain: MY330/88 ; value: >1000 µM
O=C(c1ccncc1)N(/N=C/c1cccc(Oc2ccccc2)c1)C(=O)c1cnccn1 ; strain: ATCC49601 ; value: >16 µg/mL
O=C1NC(Nc2ccc(Cl)cc2)=N/C1=C\c1ccc(Cl)cc1Cl ; value: >12.5 µg/mL
CCCCc1ccc(NC(=O)c2ccc(Cl)cc2O)cc1 ; strain: MY330/88 ; value: 8 µM
CC(C)CCOc1ccc(NC(=S)Nc2ccc(OCCC(C)C)cc2)cc1 ; strain: 724 ; value: 2 µg/mL
Cc1ccc(NC(=O)c2ncccc2O)cc1 ; strain: CNCTC MY330/88 ; value: 125 µM
CCOc1ccccc1NC(=O)OCCN1CCCCC1 ; strain: MY330/88 ; value: 1000 µM
O=C1NC(=Nc2ccc(Cl)cc2Cl)N/C1=C\c1ccc(Cl)cc1Cl ; value: >12.5 µg/mL
c1ccc(CSc2ncn[nH]2)cc1 ; strain: MY330/88 ; value: 1000 µM
O=c1c(/C=N/c2nc3ccc(Cl)cc3s2)coc2ccc(Cl)cc12 ; strain: MY 80/72 ; value: >100 µg/mL
C=C1C(=O)O[C@@H]2/C=C(\C)CC/C=C(\C)CC[C@@H]12 ; value: 128 µg/mL
Oc1ccc(Cl)cc1C(=S)Nc1ccc(Cl)c(Cl)c1 ; strain: MY330/88 ; value: 31 µM
C=C1C(=O)O[C@H]2[C@H]1CC/C(C)=C/CC[C@@]1(C)O[C@@H]21 ; value: 64 µg/mL
CCCCCCS/C(N)=N/N=C/c1ccc2ccccc2n1 ; strain: CNCTC MY66/72 ; value: 16 µM
CCCCCCCc1ccc(NC(=O)c2ccc(Cl)cc2O)cc1 ; strain: MY330/88 ; value: 8 µM
CCCCCCCCCCCCCCCCNC(=S)NCCCC(=O)OC ; strain: 724 ; value: 20 µg/mL
Clc1ccc(C(Cn2ccnc2)NCc2ccc(-c3ccccc3)cc2)cc1 ; strain: 103317 ; value: 5.16 µM
O=C(Nc1ccc(F)cc1)c1ncccc1O ; strain: CNCTC MY330/88 ; value: 62.5 µM
O=C(Nc1ccccc1)c1cc(Cl)ccc1O ; strain: CNCTC MY330/88 ; value: 31 µM
Fc1ccc(C(Cn2ccnc2)NCc2cccc3ccccc23)cc1 ; strain: 103317 ; value: 92.6 µM
Cc1ccc(CNC(=O)c2ncccc2S)cc1 ; strain: CNCTC MY330/88 ; value: 16 µM
O=C(c1ccncc1)N(/N=C/c1cccc(Cl)c1)C(=O)c1cnccn1 ; strain: ATCC49601 ; value: >16 µg/mL
O=C(Nc1ccc(Cl)c(Cl)c1)c1cc([N+](=O)[O-])ccc1O ; strain: CNCTC MY330/88 ; value: 62 µM
O=C(Oc1ccc(Cl)cc1C(=O)Nc1ccc(F)cc1)c1cnccn1 ; setting: 14 d ; strain: 330/88 ; value: 8 µM
N#Cc1cnc(C(N)=O)c(Nc2cccc(O)c2)n1 ; strain: 80/72 ; value: >100 µg/mL
O=C1NC(Nc2ccc(Cl)cc2)=N/C1=C\c1ccccc1Cl ; value: >12.5 µg/mL
CC1COc2c(N3CCN(C)CC3)c(F)cc3c(=O)c(C(=O)O)cn1c23 ; strain: 20 strains ; value: >10 µg/mL
O=C(c1ccncc1)N(/N=C/c1ccc(Cl)cc1)C(=O)c1cnccn1 ; strain: ATCC49601 ; value: >16 µg/mL
Cc1ccc2occ(/C=N/NC(=O)c3ccccc3O)c(=O)c2c1 ; strain: MY 80/72 ; value: >100 µg/mL
Fc1ccc(CSc2ncn[nH]2)cc1F ; strain: MY330/88 ; value: 1000 µM
Cc1c(CN2CCSCC2)cc(-c2cccc3ccccc23)n1-c1ccc(F)cc1 ; strain: 103317 ; value: >16 µg/mL
NNC(=O)c1ccncc1 ; setting: 14 d ; strain: 330/88 ; value: >250 µM
O=C(NCc1cccc(Cl)c1)c1ncccc1O ; strain: CNCTC MY330/88 ; value: 125 µM
CC(C)(C)c1cc(C(C)(C)C)c2oc(C(N)=O)nc2c1 ; strain: MY330/88 ; value: 250 µM
C(=C\c1ccccc1)/CNc1cccc(N2CCSCC2)c1 ; strain: 103317 ; value: 98.8 µM
Fc1ccccc1CSc1ncn[nH]1 ; strain: MY330/88 ; value: 250 µM
CCCCCCCC[N+]1(CCOC(=O)Nc2ccccc2OCCCCCC)CCCCC1 ; strain: MY330/88 ; value: 16 µM
CCCCCCc1ccc(NC(=O)c2cc(Cl)ccc2O)cc1 ; strain: MY330/88 ; value: 8 µM
Oc1ccc(Cl)cc1C(=S)Nc1cccc(F)c1 ; strain: MY330/88 ; value: 31 µM
O=C(Nc1ccccc1N1CCSCC1)c1ccc(Cl)cc1 ; strain: 103317 ; value: 92.3 µM
O=C(NCc1ccc(F)cc1)c1ncccc1S ; strain: CNCTC MY330/88 ; value: 8 µM
O=C(c1ccncc1)N(/N=C/c1ccco1)C(=O)c1cnccn1 ; strain: ATCC49601 ; value: >16 µg/mL
O=C(Nc1cccc(F)c1)c1cc(F)ccc1O ; strain: CNCTC MY330/88 ; value: 31 µM
Brc1ccc(CSc2ncn[nH]2)cc1 ; strain: MY330/88 ; value: 250 µM
CCCCCCCc1ccc(NC(=O)c2cc(Br)ccc2O)cc1 ; strain: MY330/88 ; value: 8 µM
O=C(Oc1cc(Cl)ccc1C(=O)Nc1ccc(Br)cc1)c1cnccn1 ; setting: 14 d ; strain: 330/88 ; value: 4 µM
CCCCCCOc1cccc(NC(=O)OCCN2CCCCCC2)c1 ; strain: MY330/88 ; value: 16 µM
O=C(NC1CCCCC1)N(C(=O)c1cnccn1)C1CCCCC1 ; setting: 21 d ; strain: 330/88 ; value: >500 µM
CCCc1ccc(NC(=O)c2ccc(Cl)cc2O)cc1 ; strain: MY330/88 ; value: 32 µM
C=CC[N+]1(CCOC(=O)Nc2ccccc2OCCCCCC)CCCCC1 ; strain: MY330/88 ; value: 125 µM
O/N=C(/Cn1ccnc1)c1ccc(Cl)cc1Cl ; strain: 103317 ; value: 118 µM
C[C@@H](NC(=O)OCc1ccccc1)c1cnc(-c2ccc([N+](=O)[O-])cc2)[nH]1 ; setting: 14 d ; strain: MY330/88 ; value: >125 µM
CN(C)c1ccc(NC(=O)c2cc([N+](=O)[O-])ccc2O)cc1 ; strain: CNCTC MY330/88 ; value: 1000 µM
Cc1cccc(C)c1Nc1nc(C#N)cnc1C(N)=O ; strain: 80/72 ; value: >100 µg/mL
c1ccc(-c2ccc(CNc3ccc(N4CCSCC4)cc3)cc2)cc1 ; strain: 103317 ; value: 85.5 µM
CCCCCCCc1ccc(NC(=O)c2cc(Br)cc(Br)c2O)cc1 ; strain: MY330/88 ; value: 32 µM
Cc1cccc(Nc2nc(C#N)cnc2C(N)=O)c1 ; strain: 80/72 ; value: >100 µg/mL
N#CCC(=O)N/N=C/c1coc2ccc([N+](=O)[O-])cc2c1=O ; strain: MY 80/72 ; value: >50 µg/mL
CC(C)C1Nc2cc(C(C)(C)C)cc(C(C)(C)C)c2O1 ; strain: MY330/88 ; value: >1000 µM

Repeating the first 6 entries:

compound	setting	strain	value
O=C(NCc1ccccc1)c1ncccc1O		CNCTC MY330/88	500 µM
CCOC1Oc2ccc(Cl)cc2C(=O)/C1=C/Nc1nc2ccccc2s1		MY 80/72	>100 µg/mL
CCCCCCCCOc1cccc(NC(=O)OCC[NH+]2CCCC2)c1		MY330/88	16 µM
Cc1ccc2occ(/C=N/NC(=O)c3ccncc3)c(=O)c2c1		MY 80/72	>100 µg/mL
CCCCOc1ccc(NC(=S)Nc2ccc(OCCCC)cc2)cc1		724	>20 µg/mL
CCCCCCOc1ccccc1NC(=O)OCC[N+]1(CCCC)CCCCC1		MY330/88	62.5 µM

Lines come from different laboratories, so protocols vary.